Compound potency records, mixed from different reports. Data source: NIAID ChemDB in PubChem.

Common to all: toxicity to cultured cells; cells: Vero mammalian cells; read by: MTT; endpoint: CC50

CCn: concentration that lowers growth or viability of the cells by n%. Conditions beyond the fields shown may differ between rows.

compound	value
COc1c(N2CCC3(CC2)OCCO3)c(F)cc2c(=O)c(C(=O)O)cn(C3CC3)c12	149 µM
CC1COc2c(N3CCN(C(c4ccccc4)c4ccc(Cl)cc4)CC3)c(F)c([N+](=O)[O-])c3c(=O)c(C(=O)O)cn1c23	105 µM
O=C(O)c1cn2c(n1)CN(c1cc3c(cc1[N+](=O)[O-])c(=O)c(C(=O)O)c1sc4ccccc4n13)CC2	124 µM
CC(C)(C)n1cc(C(=O)O)c(=O)c2cc(F)c(N3CCN(Cc4ccc5c(c4)OCO5)CC3)cc21	129.8 µM
CC1COc2c(N3CCN(Cc4ccc5c(c4)OCO5)CC3)c(F)c([N+](=O)[O-])c3c(=O)c(C(=O)O)cn1c23	119 µM
O=C(O)c1c(=O)c2cc(F)c(N3CCN(C(c4ccccc4)c4ccc(Cl)cc4)CC3)cc2n2c1sc1ccccc12	104.5 µM
C[C@H]1COc2c(N3CCC(n4c(=O)[nH]c5cc(Cl)ccc54)CC3)c(F)c([N+](=O)[O-])c3c(=O)c(C(=O)O)cn1c23	112 µM
COc1c(N2CC(C)OC(C)C2)c(F)cc2c(=O)c(C(=O)O)cn(C3CC3)c12	160 µM
COc1c(N2CCNC(C)C2)c(F)cc2c(=O)c(C(=O)O)cn(C3CC3)c12	>155.3 µM
CC1COc2c(N3CCN(C(=O)C4COc5ccccc5O4)CC3)c(F)c([N+](=O)[O-])c3c(=O)c(C(=O)O)cn1c23	113 µM
COc1cc2c(cc1OC)CN(c1cc3c(cc1F)c(=O)c(C(=O)O)c1sc4ccccc4n13)CC2	>123.9 µM
C[C@H]1COc2c(N3CCC4(CC3)OCCO4)c(F)cc3c(=O)c(C(=O)O)cn1c23	155 µM
COc1cc2c(cc1OC)CN(c1cc3c(cc1[N+](=O)[O-])c(=O)c(C(=O)O)cn3C1CC1)CC2	>142.5 µM
COc1c(N2CCN(C(=O)C3COc4ccccc4O3)CC2)c(F)c([N+](=O)[O-])c2c(=O)c(C(=O)O)cn(C3CC3)c12	110 µM
O=C(O)c1c(=O)c2cc([N+](=O)[O-])c(N3CCC(N4CCCCC4)CC3)cc2n2c1sc1ccccc12	61.7 µM
O=C(O)c1cn(C2CC2)c2cc(N3CC(c4ccccc4)NC(c4ccc(Cl)cc4)C3)c(F)cc2c1=O	>117.5 µM
Cc1onc(-c2c(F)cccc2F)c1C(=O)N1CCN(c2c(F)c([N+](=O)[O-])c3c(=O)c(C(=O)O)cn4c3c2OCC4C)CC1	102 µM
O=C(O)c1cn(C2CC2)c2cc(N3CCN(Cc4ccc5c(c4)OCO5)CC3)c(F)cc2c1=O	>134.3 µM
COc1c(N2CCSCC2)c(F)c([N+](=O)[O-])c2c(=O)c(C(=O)O)cn(C3CC3)c12	148 µM

The first 2 rows once more:

compound | value
COc1c(N2CCC3(CC2)OCCO3)c(F)cc2c(=O)c(C(=O)O)cn(C3CC3)c12 | 149 µM
CC1COc2c(N3CCN(C(c4ccccc4)c4ccc(Cl)cc4)CC3)c(F)c([N+](=O)[O-])c3c(=O)c(C(=O)O)cn1c23 | 105 µM